A mixed list of measured activities; the numbers were collected in NIAID ChemDB.

All rows: tests in culture; agent: Herpes simplex virus 1; read by: cytopathic effect; read-out: EC50

ECn: concentration that inhibits the pathogen or its effect by n%.

C/C(=N/Nc1nc(-c2ccccc2)cs1)c1ccc(NC(=O)CN2C(=O)c3ccccc3S2(=O)=O)cc1 ; cell line: HEL ; strain: KOS ; value: 20 µM
CCCCCCCC/C=C/CCCCCCCC(=O)O ; cell line: HEL ; strain: B2006 (TK-) ; value: >100 µM
OC[C@H]1O[C@@H](c2cc(C(O)C(I)I)c(F)cc2F)C[C@@H]1O ; cell line: E6SM ; strain: TK-deficient acyclovir-resistant ; value: >80 µg/mL
O=c1c2ncn(COCCO)c2[nH]c2ncc(C(c3ccccc3)(c3ccccc3)c3ccccc3)n12 ; strain: McIntyre ; value: >16 µg/mL
CC1(CO)CCC(Cn2nnc3c(Cl)nc(N)nc32)C1(C)C ; cell line: E6SM ; strain: KOS ; value: >100 µg/mL
NC(=O)CSc1ncnc2c1cnn2CCCCO ; cell line: E6SM ; strain: KOS ; value: >400 µg/mL
C=C(N=CC)c1nc(-c2ccccc2)n(C2O[C@H](CO)[C@@H](O)[C@H](O)[C@H]2O)n1 ; cell line: E6SM ; strain: KOS ; value: 150 µg/mL
Nc1nc2c(ncn2COCCO)c(=O)[nH]1 ; cell line: Human embryonic lung fibroblasts ; strain: TK- KOS ACVr ; value: 10 µM
Cc1ccc(C)c(NC(=O)CN2C(=O)c3ccccc3S2(=O)=O)c1 ; cell line: HEL ; strain: KOS ; value: >100 µM
Nc1nc2c(ncn2COCCOP(=O)(O)O[C@@H]2[C@H](O)[C@@H](COP(=O)(O)O[C@@H]3[C@H](O)[C@@H](CO)O[C@H]3n3cnc4c(N)ncnc43)O[C@H]2n2cnc3c(N)ncnc32)c(=O)[nH]1 ; cell line: PRK ; strain: B2006 (TK-) ; value: >100 µg/mL
CCC(Sc1ncnc2c1cnn2COCCO)C(N)=O ; cell line: E6SM ; strain: B2006 (TK-) ; value: >400 µg/mL
Nc1nc2c(ncn2COCCO)c(=O)[nH]1 ; cell line: HFF ; strain: V70843 (acyclovir-susceptible) ; value: 1 µg/mL
CC=NC(=N)c1nc(-c2ccc(C)cc2)n(COCCO)n1 ; cell line: E6SM ; strain: KOS ; value: >40 µg/mL
C/C(=N/Nc1nc(-c2ccc(Br)cc2)cs1)c1ccc(NC(=O)CN2C(=O)c3ccccc3S2(=O)=O)cc1 ; cell line: HEL ; strain: KOS ; value: >20 µM
O=c1[nH]c(=O)n([C@H]2C[C@H](O)[C@@H](CO)O2)cc1F ; cell line: PRK ; strain: McIntyre ; value: 10 µg/mL
Nc1ccn(C[C@@H](CO)OCP(=O)(O)O)c(=O)n1 ; cell line: HEL ; strain: KOS ; value: 2 µM
COc1ccc(-c2[nH]c3nc4c(ncn4COCCO)c(=O)n3c2-c2ccc(C(c3ccccc3)c3ccccc3)cc2)cc1 ; strain: TK-deficient acyclovir-resistant ; value: >16 µg/mL
CC=NC(=N)c1nc(-c2ccc(C)cc2)n(C/C=C/c2ccccc2)n1 ; cell line: E6SM ; strain: VMW 1837 ; value: >4 µg/mL
CCCCCCCC/C=C/CCCCCCCC(=O)OCC(CO)OCn1cnc2c(=O)[nH]c(N)nc21 ; cell line: HEL ; strain: HU-10 ; value: >100 µM
CC(C1=NNC(=Nc2ccccc2F)SC1)N1C(=O)c2ccccc2C1=O ; cell line: VERO ; strain: VR733 ; value: >12.34 µg/mL
O=c1[nH]c(=O)n([C@H]2C[C@H](O)[C@@H](CO)O2)cc1/C=C/Br ; cell line: HEL ; strain: KOS ; value: 0.015 µM
Cc1cc([C@@H]2C[C@H](O)[C@@H](CO)O2)c(F)cc1Cl ; cell line: E6SM ; strain: McIntyre ; value: >400 µg/mL
CC1(CO)CCC(Cn2nnc3c(=O)[nH]c(N)nc32)C1(C)C ; cell line: E6SM ; strain: KOS ; value: >200 µg/mL
O=c1c2ncn(COC(CO)CO)c2nc2[nH]c(-c3ccccc3)cn12 ; strain: VMW 1837 ; value: 0.5 µg/mL
Nc1ncnc2c1ncn2[C@H]1CO[C@H](CO)[C@@H](O)C1 ; cell line: E6SM ; strain: TK-/TK+ (VMW 1837) ; value: >20 µg/mL
Cc1ccc(/C=N/NC(=O)c2ccccc2S(=O)(=O)NC(C)C)cc1 ; mutations: TK-deficient acyclovir-resistant ; cell line: HEL ; strain: KOS ; value: >100 µM
O=c1[nH]c(=O)n([C@H]2C[C@H](O)[C@@H](CO)O2)cc1/C=C/Br ; cell line: PRK ; strain: B2006 (TK-) ; value: >200 µg/mL
COc1cc(F)c([C@H]2C[C@H](O)[C@@H](CO)O2)cc1[N+](=O)[O-] ; cell line: E6SM ; strain: F ; value: >400 µg/mL
C=C(N=CC)c1nc(-c2cccc(C)c2)n(C2O[C@H](CO)[C@@H](O)[C@H](O)[C@H]2O)n1 ; cell line: E6SM ; strain: VMW 1837 ; value: 300 µg/mL
OC[C@H]1O[C@@H](c2cc(/C=C/Br)c(F)cc2F)C[C@@H]1O ; cell line: E6SM ; strain: VMW1837 (TK-) ; value: >400 µg/mL
Nc1ccn([C@H]2CO[C@H](CO)[C@@H](O)C2)c(=O)n1 ; cell line: E6SM ; strain: TK-/B2006 ; value: 10 µg/mL
CCc1c(CN[C@@H]2CCCC[C@H]2NCc2ccc[nH]2)c(CC)c(CN[C@@H]2CCCC[C@H]2NCc2ccc[nH]2)c(CC)c1CN[C@@H]1CCCC[C@H]1NCc1ccc[nH]1 ; cell line: Human embryonic lung fibroblasts ; strain: TK- KOS ACVr ; value: >0.16 µM
Nc1nc2c(ncn2C[C@]2(CO)C[C@H]2CO)c(=O)[nH]1 ; cell line: VERO ; strain: G ; value: 1.5 µg/mL
CCCc1cn([C@H]2C[C@H](O)[C@@H](CO)O2)c(=O)[nH]c1=O ; cell line: PRK ; strain: F ; value: 4.8 µg/mL
CN1CCN(Cc2cn([C@H]3C[C@H](O)[C@@H](CO)O3)c(=O)[nH]c2=O)CC1 ; cell line: HSF ; strain: KOS ; value: >200 µg/mL
Cc1cc([C@@H]2C[C@H](O)[C@@H](CO)O2)c(Cl)cc1F ; cell line: E6SM ; strain: F ; value: >400 µg/mL
CC(Sc1ncnc2c1cnn2COCC(O)CO)C(N)=O ; cell line: E6SM ; strain: B2006 (TK-) ; value: >400 µg/mL
Cc1cn([C@H]2CO[C@H](CO)[C@@H](O)C2)c(=O)[nH]c1=O ; cell line: E6SM ; strain: TK-/TK+ (VMW 1837) ; value: >20 µg/mL
OC[C@H]1O[C@@H](c2cc(C(O)CI)c(F)cc2F)C[C@@H]1O ; cell line: E6SM ; strain: KOS ; value: >16 µg/mL
CC1(CO)CCC(Cn2cnc3c(=O)[nH]c(N)nc32)C1(C)C ; cell line: E6SM ; strain: TK-/B2006 ; value: >400 µg/mL
OC[C@H]1O[C@@H](c2cc(I)c(F)cc2F)C[C@@H]1O ; cell line: E6SM ; strain: F ; value: >400 µg/mL
CC(C1=NNC(=Nc2cccnc2)SC1)N1C(=O)c2ccccc2C1=O ; cell line: VERO ; strain: VR733 ; value: >333 µg/mL
OC[C@H]1O[C@@H](c2cc(/C=C/I)c(F)cc2F)C[C@@H]1O ; cell line: E6SM ; strain: KOS ACV-R (TK-) ; value: >400 µg/mL
Cc1[nH]c2nc3c(ncn3COCCO[Si](C)(C)C(C)(C)C)c(=O)n2c1C(c1ccccc1)(c1ccccc1)c1ccccc1 ; strain: KOS ; value: >10 µg/mL
O=c1[nH]c(=O)n([C@H]2C[C@H](O)[C@@H](COP(=O)(O)O)O2)cc1/C=C/c1ccccc1 ; cell line: PRK ; strain: KOS ; value: 40 µg/mL
[N-]=[N+]=NCc1cn([C@H]2C[C@H](O)[C@@H](CO)O2)c(=O)[nH]c1=O ; cell line: PRK ; strain: B2006 (TK-) ; value: ≥40 µg/mL
Nc1ncnc2c1ncn2C[C@H](O)CO ; cell line: PRK ; strain: B2006 (TK-) ; value: >400 µg/mL
O=c1c2ncn(COCCO)c2nc2[nH]c(-c3ccccc3)c(-c3ccc(C(c4ccccc4)c4ccccc4)cc3)n12 ; strain: McIntyre ; value: >16 µg/mL
[N-]=[N+]=NC(CBr)c1cc([C@H]2C[C@H](O)[C@@H](CO)O2)c(F)cc1F ; cell line: E6SM ; strain: F ; value: >400 µg/mL
O=c1[nH]c(=O)n([C@@H]2O[C@H](CO)[C@@H](O)[C@@H]2O)cc1/C=C/Br ; cell line: PRK ; strain: MacIntyre ; value: 0.1 µg/mL
CSCc1cn([C@H]2C[C@H](O)[C@@H](CO)O2)c(=O)[nH]c1=O ; cell line: HSF ; strain: KOS ; value: 1 µg/mL
CC(C1=NNC(=Nc2ccc([N+](=O)[O-])cc2)SC1)N1C(=O)c2ccccc2C1=O ; cell line: VERO ; strain: VR733 ; value: >111 µg/mL
O=c1[nH]c(=O)n([C@H]2C[C@H](O)[C@@H](CO)O2)cc1I ; cell line: PRK ; strain: VEX142 ; value: 0.1 µg/mL
CC(Sc1ncnc2c1cnn2CCCCO)C(N)=O ; cell line: E6SM ; strain: VWM1837 (TK-) ; value: >400 µg/mL
CCc1cn([C@H]2C[C@H](O)[C@@H](COP(=O)(O)O)O2)c(=O)[nH]c1=O ; cell line: PRK ; strain: F ; value: 1.4 µg/mL
CCc1c(CNCc2ccc[nH]2)c(CC)c(CNCc2ccc[nH]2)c(CC)c1CNCc1ccc[nH]1 ; cell line: Human embryonic lung fibroblasts ; strain: KOS ; value: >0.8 µM
O=c1[nH]c(=O)n([C@H]2C[C@H](O)[C@@H](COP(=O)(O)O)O2)cc1/C=C/c1cccc([N+](=O)[O-])c1 ; cell line: PRK ; strain: KOS ; value: >100 µg/mL
CCc1c(CN)c(CC)c(CN)c(CC)c1CN ; cell line: Human embryonic lung fibroblasts ; strain: KOS ; value: >100 µM
C/C(=N/Nc1nc(-c2ccc(Cl)cc2)cs1)c1ccc(NC(=O)CN2C(=O)c3ccccc3S2(=O)=O)cc1 ; mutations: TK-deficient acyclovir-resistant ; cell line: HEL ; strain: KOS ; value: >20 µM
CC(C1=NN=C(N(C(=O)c2ccccc2)c2ccccc2)SC1)N1C(=O)c2ccccc2C1=O ; cell line: VERO ; strain: VR733 ; value: 111 µg/mL

Repeating the final 3 entries:

| compound | mutations | cell line | strain | value |
|---|---|---|---|---|
| CCc1c(CN)c(CC)c(CN)c(CC)c1CN |  | Human embryonic lung fibroblasts | KOS | >100 µM |
| C/C(=N/Nc1nc(-c2ccc(Cl)cc2)cs1)c1ccc(NC(=O)CN2C(=O)c3ccccc3S2(=O)=O)cc1 | TK-deficient acyclovir-resistant | HEL | KOS | >20 µM |
| CC(C1=NN=C(N(C(=O)c2ccccc2)c2ccccc2)SC1)N1C(=O)c2ccccc2C1=O |  | VERO | VR733 | 111 µg/mL |

Lines come from different laboratories, so protocols vary. An empty or dashed field is not shown.